Eleven molecules from patent publication US20150197559A1 (University of California, published 2015) can be followed below.

Experiment [1] deals with T1, BoNT/B2 (Clostridium botulinum). The experiment in a line: flow cytometry, yeast-displayed scFv, soluble toxin.
The target in experiment [2] is T2, BoNT/B3 (Clostridium botulinum). The description is as above.
Experiment [3] concerns the target T3, BoNT/B4 (Clostridium botulinum). The experiment is described as above.
Experiment [4] deals with T1, BoNT/B2. Kind of experiment: flow cytometry, yeast-displayed Fab, soluble toxin.
The target of experiment [5] is T1, BoNT/B2. The experiment in a line: KinExA flow fluorimetry, IgG in solution.
The target of experiment [6] is T2, BoNT/B3. Kind of experiment: KinExA flow fluorimetry, IgG in solution.
Experiment [7] concerns the target T3, BoNT/B4. The experiment in a line: KinExA flow fluorimetry, IgG in solution.
The target in a further experiment is Complex BoNT/A3 (Clostridium botulinum). The experiment in a line: KinExA flow fluorimetry, IgG in solution.

B1: 2B24 scFv (scFv)
scFv: QVQLVESGGGVVQPGRSLRLSCAASGLTFSVYGMHWVRQAPGKGLEWVAVISHTGSEEYYADSVKGRFSISRDNSNNTLFLQMNSLRPEDTAVYYCVKDGPMAAIPFYYFDFWGQGTLVTVSSGGGGSGGGGSGGGGSQSVVTQPPSVSAAPGQKVTISCSGSSSNIGNNYVSWYQQLPGTAPKLLIYDNNKRPSGIPDRFSGSKSGTSATLGITGLQTGDEADYYCGTWDSSLSAGVFGGGTKLTVL
On to B1, for which the Kd with BoNT/B2 [1] amounted to 4000 pM; in the experiment with BoNT/B3 [2] it was 4000 pM; with BoNT/B4 [3] it was 720 pM.

B2: 4B6 scFv (scFv)
scFv: QVQLVQSGAEVKKPGESLVISCKASGDKDTFTSFWIAWVRQMPGKGLEWMGIIYAGDSDTRYSPSFQGHVNISVDRSTNTAYLQWSSLKASDTAMYYCARHDSRYKYFYFGMDVWGQGTTVTVSSGGGGSGGGGSGGGGSDVVMTQSPSSLSASVGDRITITCQAGQDISNFLNWYQQKPGKAPKLLIRDASNLETGVPSRFSGGGSGTHFTFTISSLHPEDIATYFCQQYDNLPYTFGQGTKLEIK
On to B2, for which binding with BoNT/B2 [1] was put at a Kd of 1770 pM.

B3: 1B10 scFv (scFv)
scFv: QVQLVESGGGVVQPGRSLRLSCAASGFTFSHYGMHWVRQSPGKGLEWVAVIWYDGRNPYYAASVKGRFTISRDNDKNTLYLQMNSLRAEDTAVYYCVKDLTRFHDTTFGVFEMWGPGTTVTVSSGGGGSGGGGSGGGGSEIVLTQSPSSLSASVGDRITITCRASQSISSWLAWYQQKPGKAPMVLIYKASSLENGVPSRFSGSGSGTEFTLTISSLQPDDFATYYCQQYSTYSRTFGQGTKVEIK
As for B3, the Kd with BoNT/B2 [1] was determined as 9400 pM; in the experiment with BoNT/B4 [3] it was 4690 pM.

B4: 4B19 scFv (scFv)
scFv: QVQLVQSGAEVKKPGASVNVSCKASGYTFTGYYIYWVRQAPGQGLEWMGWINPNSGVTKYAQKFQGRVTMTIDTSTNTAYMELNRLRADDTAVYYCAREWTQLWSPYDYWGQGTTVTVSSGGGGSGGGGSGGGGSDIVLTQSPSTLSASVGDRVTISCRASRSIGWYLNWYQQRPGKAPKLLIYAASSLHNGVPSRFSGSGSGTEFTLTISSLQPDDFATYYCQQAFGFPRTFGQGTKVEIK
Regarding B4, the Kd is 7030 pM with BoNT/B2 [1], 3900 pM in the experiment with BoNT/B3 [2] and 3300 pM with BoNT/B4 [3].

B5: B6.1 Fab (Fab, V domains shown)
VH: QVQLVQSGAEVKKPGESLVISCKASGDKDTFTSFWIAWVRQMPGKGLEWMGIIYAGDSDTRYSPSFQGHVNISVDRSTNTAYLQWSSLKASDTAMYYCARHDSRYKYFYFGMDVWGQGTTVTVSS
VL: not shown
The molecule B5 displayed a Kd in the experiment with BoNT/B2 [4] of 246 pM.

B6: B6.1 IgG (antibody, V domains shown)
VH: QVQLVQSGAEVKKPGESLVISCKASGDKDTFTSFWIAWVRQMPGKGLEWMGIIYAGDSDTRYSPSFQGHVNISVDRSTNTAYLQWSSLKASDTAMYYCARHDSRYKYFYFGMDVWGQGTTVTVSS
VL: not shown
For the molecule B6, the Kd with BoNT/B2 [5] was 9.18 pM; in the experiment with BoNT/B3 [6], 28.5 pM; with BoNT/B4 [7], 9.41 pM.

B7: 4B7 scFv (scFv)
scFv: QVQLQQSGPGLVKPSQTLSLTCSVSGGSINSDGSYWSWVRQHPGKGLEWIGYIYYSGTTYFNPSLKSRLTMSVDTSKNQFSLKMTSVTAADTAVYYCARMSGSRSYSQYYFDSWGQGTLVTVSSGGGGSGGGGSGGGGSDIQMTQSPSSLSASVGDRVTITCRASQSISSYLNWYQQKPGTAPKLLISDASTLQSGVPSRFSGSGSGTEFTLTISNLQPEDFATYYCQQFNSYVWTFGQGTKLEIK
In the case of B7, the values for the Kd with BoNT/B2 [1] and with BoNT/B4 [3] were 34800 pM and 10000 pM, respectively.

B8: 1B22 scFv (scFv)
scFv: QVQLQESGSRLVKPSQTLSLTCGVSGGSISSSSYSWSWIRQTPGKGLEWIGYIYHSGSTYYNPSLKSRVTMSVDKSRNQFSLNMSSVTAADTAVYYCARTAFYYENTGPIRCYLDFWGQGTLVTVSSGGGGSGGGGSGGGGSDIQMTQSPSTLSASIGDRVTISCRASQSIQSWLAWYQQRPGEAPKLLIYSASTLQTGVPSRFSGSGSGTDFTLTISSLQPEDFATYYCQQYNSYPLTFGQGTKLEIK
For B8, the Kd with BoNT/B2 [1] was found to be 460 pM; with BoNT/B3 [2], 390 pM; with BoNT/B4 [3], 480 pM.

B9: 2B23 scFv (scFv)
scFv: EVQLLESGGGLVQPGGSLRLSCAASGFTFSNYPMSWVRQAPGKGLAWVSSLTASGDNTFYADSVKGRFTISRDNSNNTLYLQMHSLRAEDTAVYYCAKALVGRYDISTGYYRPVMDSWGQGTLVTVSSGGGGSGGGGSGGGGSDIQMTQSPPSLSASVGDRVTITCRTSQGFTSALAWYQQKPGEPPKLLIYDASKLESGVPSRFSGSGSGTNFALTISSLQPEDFATYFCQQSNSYPLTFGGGTKVEIK
For B9, the results for the Kd in the experiment with BoNT/B2 [1], with BoNT/B3 [2] and in the experiment with BoNT/B4 [3] were 130 pM, 250 pM and 190 pM, respectively.

B10: ING1 IgG (antibody, V domains shown)
VH: QVQLQQSGGGLVQPGGSLRLSCAASGFTFSNYAMTWVRQAPGKGLEWVSSISVGGSDTYYADSVKGRFTVSRDNSKNTLLLQMNSLRAEDTAVYYCAKVRTKYCSSLSCFAGFDSWGQGTRVTVSS
VL: not shown
Take B10: the affinity with Complex BoNT/A3, expressed as Kd, was 400 pM.

B11: 2B25 scFv (scFv)
scFv: QVQLQESGPGLVKPSQTLSLSCSVSGASITSGTFYWSWIRQHPGKDLEWIGYIYYSGTTYYNPSLKSRVTLSVDTSKNQFSLKVTSLTAADTAVYHCARGVPIYDSSGTYRGTYFDYWGQGTLVTVSSGGGGSGGGGSGGGGSQPGLTQPPSASGTPGQRVTISCSGSSSNVGSNTVNWYQQLPGTAPKLLIYRNDQRPSGVPDRFSGSKSGASASLAISGLRSEDEADYYCAAWDDSLNGLLFGGGTQLTVL
On to B11, for which the values for the Kd in the experiment with BoNT/B2 [1], in the experiment with BoNT/B3 [2] and with BoNT/B4 [3] were 630 pM, 930 pM and 680 pM, respectively.
